Series [1] concerns A. hydrophila. As to the kind of experiment: Ratiometric pre-rRNA analysis (RT-qPCR) of chlorine-treated cell suspensions after 1 hour of nutritional stimulation. The following applies: mean ± SD of 3 replicate samples. In general terms: Real-time PCR tracks product formation cycle by cycle.
For series [2], the system named is A. hydrophila. The series is described as follows: Viable plating of A. hydrophila cell suspensions after chlorine exposure. The settings on record: for Percent viability: normalized to estimated 1 × 10^6 input bacteria.
The mark [3] stands for this setting: Experiment 1, hypochlorite 1 mg/l.
Setting [4] is: Experiment 1, hypochlorite 2 mg/l.
Where [5] appears, read: Experiment 1, hypochlorite 3 mg/l.
[6] abbreviates: Experiment 1, hypochlorite 4 mg/l.
The mark [7] stands for this setting: Experiment 2, hypochlorite 1 mg/l.
The mark [8] stands for this setting: Experiment 2, hypochlorite 1.5 mg/l.
[9] abbreviates: Experiment 2, hypochlorite 2 mg/l.

The values below come from US9115407B2, “Ratiometric pre-rRNA analysis” (dated 2015).

In the case of sodium hypochlorite, the Pre-rRNA stimulation ratio turned out to be 17.2 ± 3.6 with A. hydrophila [1] (setting [3]); 73.0 ± 54.2 with A. hydrophila [1] (setting [4]); 0.6 ± 1.0 in the series on A. hydrophila [1] (setting [5]); 0.04 ± 0.1 in the series with A. hydrophila [1] (setting [6]); 17.44 ± 5.4 in the series with A. hydrophila [1] (setting [7]); 16.47 ± 6.6 with A. hydrophila [1] (setting [8]). Besides, in the series on A. hydrophila [1] (setting [9]), the Pre-rRNA stimulation ratio was found to be 1.28 ± 0.4. Further, the “Final cfu/mL” value in the series on A. hydrophila [2] (setting [3]) is 279000 cfu/mL; in the series with A. hydrophila [2] (setting [4]) it was 190 cfu/mL; with A. hydrophila [2] (setting [5]) it was 0 cfu/mL; with A. hydrophila [2] (setting [6]), 0 cfu/mL; with A. hydrophila [2] (setting [7]), 846000 cfu/mL; in the series on A. hydrophila [2] (setting [8]), 186000 cfu/mL. In the series on A. hydrophila [2] (setting [9]), the “Final cfu/mL” value was 0 cfu/mL. Also, the Percent viability in the series on A. hydrophila [2] (setting [3]) was 27.9%; with A. hydrophila [2] (setting [4]), 0.02%; in the series on A. hydrophila [2] (setting [5]), 0%; in the series on A. hydrophila [2] (setting [6]), 0%; in the series with A. hydrophila [2] (setting [7]) it was 84.6%; in the series with A. hydrophila [2] (setting [8]), 18.6%. Also, the Percent viability in the series on A. hydrophila [2] (setting [9]) is 0%.
